Consider two compounds from ChEMBL document CHEMBL3045284 (Crop Prot, 2009).

≈ marks a conversion by molar mass, not a printed value.

For orientation: EC50 means the midpoint of the concentration-response curve.

Assay [1] relates to Pyricularia oryzae. The experiment in a line: Antifungal activity against drug-resistant Magnaporthe oryzae KJ113 assessed as inhibition of mycelial growth.
Assay [2] relates to Pyricularia oryzae. Put plainly: Antifungal activity against drug-resistant Magnaporthe oryzae IC115 assessed as inhibition of mycelial growth.
Assay [3] concerns Pyricularia oryzae. Put plainly: Antifungal activity against drug-resistant Magnaporthe oryzae IC068 assessed as inhibition of mycelial growth.
Assay [4] concerns Pyricularia oryzae. Put plainly: Antifungal activity against drug-resistant Magnaporthe oryzae DH189 assessed as inhibition of mycelial growth.
The subject of assay [5] is Pyricularia oryzae. The experiment in a line: Antifungal activity against drug-sensitive Magnaporthe oryzae KH144 assessed as inhibition of mycelial growth.
Assay [6] deals with Pyricularia oryzae. The experiment in a line: Antifungal activity against drug-sensitive Magnaporthe oryzae IC029 assessed as inhibition of mycelial growth.
The subject of assay [7] is Pyricularia oryzae. Put plainly: Antifungal activity against drug-sensitive Magnaporthe oryzae HM036 assessed as inhibition of mycelial growth.
The test system of assay [8] is Pyricularia oryzae. The experiment in a line: Antifungal activity against drug-sensitive Magnaporthe oryzae HM025 assessed as inhibition of mycelial growth.
The test system of assay [9] is Pyricularia oryzae. Put plainly: Antifungal activity against drug-resistant Magnaporthe oryzae infected six-leaf stage of rice plant assessed susceptible lesion number per leaf area treated 24 hr before fungal infection measured after 24 hr.
For assay [10], the system named is Pyricularia oryzae. The experiment in a line: Antifungal activity against drug-resistant Magnaporthe oryzae KJ163 assessed as inhibition of mycelial growth.
In assay [11] the test system is Pyricularia oryzae. Put plainly: Antifungal activity against drug-resistant Magnaporthe oryzae KJ120 assessed as inhibition of mycelial growth.
Assay [12] deals with Pyricularia oryzae. Put plainly: Antifungal activity against drug-resistant Magnaporthe oryzae HM158 assessed as inhibition of mycelial growth.
For assay [13], the system named is Pyricularia oryzae. Put plainly: Antifungal activity against drug-resistant Magnaporthe oryzae DH156 assessed as inhibition of mycelial growth.
The subject of assay [14] is Pyricularia oryzae. The experiment in a line: Antifungal activity against drug-sensitive Magnaporthe oryzae KN144 assessed as inhibition of mycelial growth.
In assay [15] the test system is Pyricularia oryzae. Put plainly: Antifungal activity against drug-sensitive Magnaporthe oryzae KH146 assessed as inhibition of mycelial growth.
For assay [16], the system named is Pyricularia oryzae. Put plainly: Antifungal activity against drug-sensitive Magnaporthe oryzae CC134 assessed as inhibition of mycelial growth.
The test system of assay [17] is Pyricularia oryzae. The experiment in a line: Antifungal activity against drug-sensitive Magnaporthe oryzae CC056 assessed as inhibition of mycelial growth.

In the case of `CCOP(=O)(Sc1ccccc1)Sc1ccccc1` [EDIFENPHOS], the EC50 was 9.94 µg/mL (≈ 32 µM) in the assay with Pyricularia oryzae [1]; 9.44 µg/mL (≈ 30.4 µM) in the assay on Pyricularia oryzae [2]; 9.91 µg/mL (≈ 31.9 µM) in the assay with Pyricularia oryzae [3]; 7.93 µg/mL (≈ 25.5 µM) with Pyricularia oryzae [4]; 3.58 µg/mL (≈ 11.5 µM) with Pyricularia oryzae [5]; 5.84 µg/mL (≈ 18.8 µM) in the assay on Pyricularia oryzae [6]. Moreover, the EC50 in the assay on Pyricularia oryzae [7] was 2.41 µg/mL (≈ 7.76 µM); in the assay with Pyricularia oryzae [8], 2.97 µg/mL (≈ 9.57 µM). Further, the Activity in the assay on Pyricularia oryzae [9] was 0.2 cm2.
In the case of `CC(C)OP(=O)(OC(C)C)SCc1ccccc1` [IPROBENFOS], the 50% effective concentration (EC50) stood at 26 µg/mL (≈ 90.1 µM) in the assay with Pyricularia oryzae [10]; 29.7 µg/mL (≈ 103 µM) in the assay on Pyricularia oryzae [11]; 42.1 µg/mL (≈ 146 µM) in the assay with Pyricularia oryzae [12]; 27.1 µg/mL (≈ 94 µM) in the assay with Pyricularia oryzae [13]; 8.88 µg/mL (≈ 30.8 µM) with Pyricularia oryzae [14]; 8.76 µg/mL (≈ 30.4 µM) in the assay with Pyricularia oryzae [15]. Besides, the EC50 was found to be 8.92 µg/mL (≈ 30.9 µM) in the assay with Pyricularia oryzae [16] and 10.7 µg/mL (≈ 37.2 µM) in the assay on Pyricularia oryzae [17]. This compound returned an Activity in the assay with Pyricularia oryzae [9] of 1.6 cm2.
